System: N. elongata
Experiment: Bacterial intracellular boron content by ICP-MS
Assay type: cell-based, Neisseria elongata

[Na+].c1ccc([B-](c2ccccc2)(c2ccccc2)c2ccccc2)cc1 [Compound 1, Sodium tetraphenylborate]
boron uptake relative to respective control (5 μM in agar media, ICP-MS): less than 2 fold
boron levels relative to NaBF4 (100 μM of NaBPh4 vs 100 μM NaBF4): 61 fold

Reference: patent publication US12421264B2 (INSTITUT NATIONAL DE LA RECHERCHE SCIENTIFIQUE, priority 2018, dated 2025)
